Pooled drug test results. Numbers come from NIAID ChemDB, via PubChem.

Shared fields: whole-cell or culture tests; organism: Mycobacterium bovis BCG

Lines come from different laboratories, so protocols vary.

SMILES | strain | method | conditions | read-out | value
CC[C@@H](CO)NCCN[C@@H](CC)CO | 1173P2 | broth dilution | 48 h | MIC100 | 0.75 µg/mL
COc1cccc(-c2ccc3[nH]c4cc(C(C)C(=O)O)ccc4c3c2)c1 |  | resazurin / visual reading / absorbance |  | MIC99 | 62.5 µg/mL
C#CC(C)OC(C)=O | 1173P2 | resazurin | 24 h | MIC | 125 µg/mL
COC(=O)Cc1ccc2[nH]c3ccc(C)cc3c2c1 |  | resazurin / visual reading / absorbance |  | MIC99 | 31.3 µg/mL
O=C1c2cccnc2-c2nccc3c2c1nc1cc(Br)ccc13 | Pasteur |  |  | MIC | 0.781 µM
COC(=O)Cc1ccc2[nH]c3ccc(F)cc3c2c1 |  | resazurin / visual reading / absorbance |  | MIC99 | 62.5 µg/mL
CCCCCn1cc(/C=N/Nc2nncs2)c2ccccc21 | 1173P2 | broth dilution | 48 h | MIC100 | 3.91 µg/mL
Cc1cc(N)c2ccccc2[n+]1CCCCCCCCCC[n+]1c(C)cc(N)c2ccccc21 | Pasteur |  |  | MIC | 3.125 µM
C(=N\Nc1nncs1)/c1cn(Cc2ccccc2)c2ccccc12 | 1173P2 | broth dilution | 24 h | MIC100 | 125 µg/mL
C#Cc1ccccc1 | 1173P2 | resazurin | 48 h | MIC | 31.25 µg/mL
CCCn1cc(/C=N/Nc2nncs2)c2ccccc21 | 1173P2 | broth dilution | 24 h | MIC100 | 250 µg/mL
C#CCOC(=O)CCCCCC | 1173P2 | resazurin | 48 h | MIC | 125 µg/mL
COC(=O)Cc1ccc2[nH]c3ccc(Cl)cc3c2c1 |  | resazurin / visual reading / absorbance |  | MIC99 | 31.3 µg/mL
C#CCCCCCCCC | 1173P2 | resazurin | 24 h | MIC | 62.5 µg/mL
COc1ccc(Cn2cc(/C=N/Nc3nncs3)c3ccccc32)cc1 | 1173P2 | broth dilution | 24 h | MIC100 | 3.91 µg/mL
CCn1cc(C(=O)O)c(=O)c2cc(F)c(N3CCNC(C)C3)c(F)c21 | Pasteur |  |  | MIC | 1.56 µM
COC(=O)Cc1ccc2[nH]c3ccc(Br)cc3c2c1 |  | resazurin / visual reading / absorbance |  | MIC99 | 15.6 µg/mL
OC(c1cc(-c2ccccc2)nc2c1ccc1ccccc12)C1CCCCN1 | Pasteur |  |  | MIC | 12.5 µM
NNC(=S)N/N=C/c1cn(Cc2ccccc2F)c2ccccc12 | 1173P2 | broth dilution | 24 h | MIC100 | >500 µg/mL

Repeating the first 3 entries:

{"SMILES": "CC[C@@H](CO)NCCN[C@@H](CC)CO", "strain": "1173P2", "method": "broth dilution", "conditions": "48 h", "read-out": "MIC100", "value": "0.75 µg/mL"}
{"SMILES": "COc1cccc(-c2ccc3[nH]c4cc(C(C)C(=O)O)ccc4c3c2)c1", "method": "resazurin / visual reading / absorbance", "read-out": "MIC99", "value": "62.5 µg/mL"}
{"SMILES": "C#CC(C)OC(C)=O", "strain": "1173P2", "method": "resazurin", "conditions": "24 h", "read-out": "MIC", "value": "125 µg/mL"}

Blank or dashed fields: not listed here. A number after MIC or MFC names an inhibition level or a share of isolates.